Source: paper PMC11239678, “Molecular basis for receptor recognition and broad host tropism for merbecovirus MjHKU4r-CoV-1” (2024)

Columns and labels:
Assay in all cases: SPR
[1] = target: camel CD26, camel
[2] = target: cattle CD26, cattle (UniProt P81425)
[3] = target: goat CD26, goat
[4] = target: horse CD26, horse
[5] = target: macaque CD26, macaque
[6] = target: marmoset CD26, marmoset
[7] = target: pig CD26, pig (UniProt P22411)
[8] = target: sheep CD26, sheep
[9] = target: Malayan pangolin CD26 (Malayan pangolin)

“MjHKU4r-CoV-1 spike (S) protein receptor-binding domain” was tested, and the Kd [1] was 480 nM, the Kd [2] was 200 nM and the Kd [3] was 220 nM. The Kd [4] was 170 nM, the Kd [5] was 710 nM and the Kd [6] was 240 nM. It also gave a Kd [7] of 360 nM and a Kd [8] of 210 nM.
Work on “MjHKU4r-CoV-1 spike (S) protein receptor-binding domain (domain or fragment)” yielded a Kd [9] of 300 nM.
